Anti-infective test results gathered from many reports (values: NIAID ChemDB through PubChem).

Common to all: growth or infection tests; species: HIV-1; measure: fold resistance

Blank or dashed fields: not listed here. Rows are shuffled and stem from different studies. Fold resistance has wild type as its base.

compound | strain | read by | cell line | mutations | result
Cc1cc2cn[nH]c2cc1NC(=O)COc1ccc(Cl)cc1C(=O)c1cccc(C#N)c1 | HXB2 | β-galactosidase | HeLa + HELA CD4+ | RT-V106I | ~1
CC(C)=CCOc1cc(NC(=S)c2ccsc2C)ccc1Cl | NL4-3 (RT V108I) | cytopathic effect / XTT | CEM + CEM-SS | RT-V108I | 1
CCN1c2ncc(CCOc3ccc(-c4ccc(C(=O)O)c(Cl)c4)cc3C)cc2C(=O)N(C)c2cccnc21 | - | p24 | C8166 | RT-K103N Y181C | >1
CC(C)OC(=S)Nc1ccc(Cl)c(C(=O)OC2(C)COC2)c1 | - | syncytia | CEM | RT-Y181C | 10
Cc1cc2c(C)ccc(-n3c(C)nnc3SCC(=O)Nc3ccccc3Br)c2cc1C | NL4-3 | luciferase | HeLa + HeLa-JC53 | RT-Y188L | 110
Cc1ccsc1C(=S)Nc1ccc(Cl)c(C(=O)OC(C)C)c1 | - | syncytia | CEM | RT-E138K | 26.7
CC(C)OC(=S)Nc1ccc(Cl)c(C(=O)O)c1 | - | syncytia | CEM | RT-V106A | >1
CC(C)[C@H](NC(=O)OCc1ccccn1)C(=O)N[C@@H](Cc1ccccc1)[C@@H](O)C[C@H](Cc1ccccc1)NC(=O)OCc1cccnc1 | NL4-3 | p24 | MT-4 | PR-L10R M46I L63P | 1
CC(C)OC(=S)Nc1ccc(Cl)c(C(=O)OCc2ccccc2)c1 | - | syncytia | CEM | RT-Y181C | 15.7
Cc1nnc(SCC(=O)Nc2ccccc2Br)n1-c1ccc(Cl)c2ccccc12 | NL4-3 | luciferase | HeLa + HeLa-JC53 | RT-Y188L | 250
Cc1cc(C#N)cc(C)c1Oc1nc(Nc2ccc(C#N)cc2)c(=O)n(C)c1C | - | cytopathic effect / MTT | MT-4 | RT-K103N | 1
COc1ccc(NC(=S)OC(C)C)cc1CC(=O)OC(C)C | - | syncytia | CEM | RT-E138K | 7.36
COc1ccc(NC(=S)C2=C(C)OCCS2)cc1OCC=C(Cl)Cl | Pyridone-resistant (RT Y181C) | syncytia | CEM | RT-Y181C | 7.41
C[C@@H]1CCO[C@H]2Cn3cc(C(=O)NCc4ccc(F)cc4F)c(=O)c(O)c3C(=O)N12 | NL4-3 | RT activity | CBMC | Y143R | 1.2
CCN1c2ncc(CCOc3ccc(NC(=O)c4ccccc4C(=O)O)cc3C)cc2C(=O)N(C)c2cccnc21 | - | p24 | C8166 | RT-K103N Y181C | >1
CO/N=C(\C)COc1cc(NC(=S)OC(C)C)ccc1Cl | - | syncytia | CEM | RT-L100I | 14.3
Cc1ccc2ccc(C)c(-n3c(SCC(=O)Nc4ccc(S(N)(=O)=O)cc4Cl)nnc3C(F)(F)F)c2c1 | NL4-3 | luciferase | HeLa + HeLa-JC53 | RT-Y188L | 8.7
COc1cc2c(cc1Cc1cccc(Cl)c1F)c(=O)c(C(=O)O)cn2[C@H](CO)C(C)C | NL4-3 | luminescence | MT-4 | T174I | 1
Nc1ncnc2c1ncn2[C@@H]1C=C[C@H](OCP(=O)(O)O)O1 | - | cytopathic effect | MT-2 | RT-M184V | 14
CSCCOC(=S)Nc1ccc(Cl)c(C(=O)OC(C)C)c1 | - | syncytia | CEM | RT-E138K | 11.1
O=C(O[C@@H]1[C@H](OC(=O)c2ccccc2)[C@@H](CO)O[C@H]1n1cnc2c(N(C(=O)c3ccccc3)C(=O)c3ccccc3)ncnc21)c1ccccc1 | NL4-3 | β-galactosidase | HeLaP4 | T215Y | 0.41
N#Cc1cc2[nH]c3ccccc3c2n(-c2ccc([N+](=O)[O-])cc2)c1=O | G | cytopathic effect / MTT | MT-4 | RT-V106A F227L | 2
CCc1cc(C#N)cc(C(=O)c2cc(Cl)ccc2OCC(=O)Nc2ccc(S(N)(=O)=O)cc2C)c1 | HXB2 | β-galactosidase | HeLa + HELA CD4+ | RT-P225H | ~1
Cc1sccc1C(=S)Nc1ccc(Cl)c(C(=O)OC2CCCCC2)c1 | - | syncytia | CEM | RT-L100I | 12.1
Cc1occc1C(=O)Nc1ccc(Cl)c(SCC=C(Cl)Cl)c1 | HEPT-resistant (RT Y188H) | syncytia | CEM | RT-Y188H | 21.5
Cc1ccc2c(-n3c(C)nnc3SCC(=O)Nc3ccccc3Br)ccc(C)c2c1 | NL4-3 | luciferase | HeLa + HeLa-JC53 | RT-Y188L | 300
O=C1Nc2ccc(F)c(F)c2[C@@](C#CC2CC2)(C(F)(F)F)N1 | - | - | - | RT-K101E | <13.3
Cc1occc1C(=O)Nc1ccc(Cl)c(/C=N/N2CCCC2)c1 | R82913-resistant (RT K103N) | syncytia | CEM | RT-K103N | <6.15
CCC(=O)c1ccc(F)c([C@@H]2C[C@@H]2NC(=O)Nc2ccc(C#N)cn2)c1O | LAI | β-galactosidase / luminescence | TZM-bl | NNRTI-resistant (RT K101E/Y181C) | 52.5
Cc1occc1C(=S)Nc1ccc(Cl)c(SCC=C(Cl)Cl)c1 | HEPT-resistant (RT Y188H) | syncytia | CEM | RT-Y188H | 400
CC(C)=CCOc1cc(NC(=S)c2ccoc2C)ccc1Cl | - | syncytia | CEM | RT-Y181C | 5
Nc1nc(NC2CC2)c2ncn([C@H]3C=C[C@@H](CO)C3)c2n1 | XM-M184V | p24 | PBMC | RT-M184V | 1.6
Cc1nnc(SCC(=O)Nc2ccc(S(N)(=O)=O)cc2Cl)n1-c1ccc(Cl)c2ccccc12 | NL4-3 | luciferase | HeLa + HeLa-JC53 | RT-Y188L | 68
CC(C)=CCOc1cc(NC(=S)c2ccoc2C)ccc1Cl | E BPTU-resistant (RT Y181C) | cytopathic effect / XTT | CEM + CEM-SS | RT-Y181C | 40
CC(C)OC(=O)c1cc(NC(=S)OC(C)(C)C)ccc1Cl | - | syncytia | CEM | RT-L100I | ≥16.7
COc1ccccc1C(=S)Nc1ccc(Cl)c(C(=O)OC(C)C)c1 | - | syncytia | CEM | RT-E138K | 20.3
CC1=C(C(=O)Nc2ccc(Cl)c(C(=O)OC3CCCCC3)c2)SCCO1 | TIBO-resistant (RT L100I) | syncytia | CEM | RT-L100I | 21.25
Cc1cn([C@H]2C=C[C@@H](CO)O2)c(=O)[nH]c1=O | XM-AZT-resistant | p24 | MT-4 | RT-M41L D67N K70R T215Y K219Q | 2.3
CC(C)OC(=O)c1cc(NC(=S)N(C)C(C)C)ccc1Cl | - | syncytia | CEM | RT-Y181C | >1
CN(C)C1=C(C#N)/C(=C2/C(C#N)=C(N(C)C)N(c3ccc([N+](=O)[O-])cc3)c3c2n(C)c2ccccc32)c2c(c3ccccc3n2C)N1c1ccc([N+](=O)[O-])cc1 | Diphenyl sulfone-resistant (RT-Y181I) | cytopathic effect / XTT | CEM + CEM-SS | RT-Y181I | 0.608
CCCOC(=O)c1cc(NC(=S)OC(C)C)ccc1Cl | - | syncytia | CEM | RT-E138K | 45.1
Cc1ccc(Oc2cn(C)c(=O)c(Nc3ccc(F)cc3)n2)c(C)c1 | - | cytopathic effect / MTT | MT-4 | RT-K103N | >7.95
CCN1c2ncc(CCOc3ccc(-c4cccc(C(=O)O)c4)cc3C)cc2C(=O)N(C)c2cccnc21 | - | p24 | C8166 | RT-K103N Y181C | >1
COC(=O)c1cc(NC(=O)C2=C(C)OCCS2)ccc1Cl | Nevirapine-resistant (RT V106A) | syncytia | CEM | RT-V106A | >2.5
CCOC(=O)c1cc(NC(=S)OC(C)C)ccc1C | - | syncytia | CEM | RT-E138K | 1290
COc1ccc(NC(=O)c2ccoc2C)cc1OCC=C(Cl)Cl | Nevirapine-resistant isolate (RT V106A) | syncytia | CEM | RT-V106A | 8
CO/N=C/c1cc(NC(=S)c2ccoc2C)ccc1OC | - | syncytia | CEM | RT-K103N | 170
CCOC(=O)c1cc(NC(=S)OC(C)C)ccc1SC | - | syncytia | CEM | RT-Y181C | 83.5
Cc1cc(C#N)cc(C(=O)c2cc(Cl)ccc2OCC(=O)Nc2ccc(S(N)(=O)=O)nc2C)c1 | HXB2 | β-galactosidase | HeLa + HELA CD4+ | RT-V108I Y181C | ~1
CCCC1=C(C(=O)Nc2ccc(Cl)c(C(=O)OC)c2)SCCO1 | TSAO-resistant (RT E138K) | syncytia | CEM | RT-E138K | >13.3
C=CCOc1cc(NC(=S)OC(C)C)ccc1Cl | - | syncytia | CEM | RT-E138K | 7140
Cn1c2ccccc2c2c1cc(C#N)c(=O)n2-c1ccc([N+](=O)[O-])cc1 | F | cytopathic effect / MTT | MT-4 | RT-Y188L | 2
Cc1ccc(Oc2nc(Nc3ccc(C#N)cc3)c(=O)n(C)c2C)c(C)c1 | - | cytopathic effect / MTT | MT-4 | RT-L100I K103N | 528
CCN1c2ncc(CCOc3ccc(-c4csc(N)n4)cc3C)cc2C(=O)N(C)c2cccnc21 | - | p24 | C8166 | RT-K103N Y181C | 1
Cc1occc1C(=S)Nc1ccc(Cl)c(OC(=O)OC(C)C)c1 | - | syncytia | CEM | RT-V106A | 8.18
CCOC(=O)c1cc(NC(=O)C2=C(C)OCCS2)ccc1Cl | TSAO-resistant (RT E138K) | syncytia | CEM | RT-E138K | 65
Cc1cc2[nH]cnc2cc1NC(=O)COc1ccc(Cl)cc1C(=O)c1cc(F)cc(C(F)(F)F)c1 | HXB2 | β-galactosidase | HeLa + HELA CD4+ | RT-V108I Y181C | ~1
Cc1ccsc1C(=S)Nc1ccc(Cl)c(/C=N/OC(C)(C)C)c1 | - | syncytia | CEM | RT-V106A | 20
COCCOC(=O)c1cc(NC(=O)C2=C(C)OCCS2)ccc1Cl | PYR-resistant (RT Y181C) | syncytia | CEM | RT-Y181C | >16.7
CC(C)OC(=S)Nc1ccc(Cl)c(C(=O)OCC[Si](C)(C)C)c1 | - | syncytia | CEM | RT-E138K | 35
CCCCOC(=O)c1cc(NC(=O)C2=C(C)OCCS2)ccc1Cl | TIBO-resistant (RT L100I) | syncytia | CEM | RT-L100I | 17.5
CC(C)OC(=S)Nc1ccc(Cl)c(C(=O)SC(C)C)c1 | - | syncytia | CEM | RT-V106A | 95.4
CCN1c2ncc(CCOc3ccc(-c4ccc(CC(=O)O)cc4)cc3CO)cc2C(=O)N(C)c2cccnc21 | - | p24 | C8166 | RT-K103N Y181C | >1
CC[C@@H](C)OC(=S)Nc1ccc(Cl)c(C(=O)OC(C)C)c1 | - | syncytia | CEM | RT-E138K | 4.48
O=C1Nc2ccc(Cl)cc2[C@@](C#CC2CC2)(C(F)(F)F)N1 | - | - | - | RT-K103N V108I | 21.1
CC[C@H](C)OC(=S)Nc1ccc(Cl)c(C(=O)OC(C)C)c1 | - | syncytia | CEM | RT-V106A | 13.3
O=C(Nc1ccc(Cl)c(C(=O)OC2CCCCC2)c1)c1ccccc1F | - | syncytia | CEM | RT-Y181C | 8.125
CC1=C(C(=O)Nc2cc(Cl)cc(C(=O)OC(C)C)c2)SCCO1 | TIBO-resistant (RT L100I) | syncytia | CEM | RT-L100I | 1
CC1=C(C(=O)Nc2ccc(Cl)c(C(=O)OC(C)C)c2)SCCO1 | - | syncytia | CEM | RT-Y181C | 1000
CCN1c2ncc(CCOc3ccc(C(=O)N=c4ccn(O)cc4)cc3C)cc2C(=O)N(C)c2cccnc21 | - | p24 | C8166 | RT-K103N Y181C | 1
COc1ccc(NC(=S)c2ccoc2C)cc1OCC=C(Cl)Cl | Pyridone-resistant (RT Y181C) | syncytia | CEM | RT-Y181C | 20.8
CCCC1=C(C(=O)Nc2ccc(Cl)c(C(=O)OCC)c2)SCCO1 | TIBO-resistant (RT L100I) | syncytia | CEM | RT-L100I | 3.67
COC(=O)c1cc(NC(=S)OC(C)C)ccc1Cl | - | syncytia | CEM | RT-E138K | 15
COc1ccnc2[nH]cc(C(=O)C(=O)N3CCN(C(=O)c4ccccc4)C[C@H]3C)c12 | LAI(GP120-M434I) Recombinant | RT activity | MT-2 | GP120-M434I | 4.25
C=C(Cl)COc1cc(NC(=S)c2ccsc2C)ccc1C#N | TIBO R82913-resistant (RT K103N) | syncytia | CEM | RT-K103N | 13.3
COC(=S)Nc1ccc(Cl)c(C(=O)OC(C)C)c1 | - | syncytia | CEM | RT-L100I | ≥5.27
CC1=C(C(=O)Nc2ccc(Cl)c(C(=O)OC3CCCCC3C)c2)SCCO1 | PYR-resistant (RT Y181C) | syncytia | CEM | RT-Y181C | 13

For reference, 9 entries again:

| compound | strain | read by | cell line | mutations | result |
|---|---|---|---|---|---|
| CC(C)OC(=S)Nc1ccc(Cl)c(C(=O)OCC[Si](C)(C)C)c1 | - | syncytia | CEM | RT-E138K | 35 |
| N#Cc1cc2[nH]c3ccccc3c2n(-c2ccc([N+](=O)[O-])cc2)c1=O | G | cytopathic effect / MTT | MT-4 | RT-V106A F227L | 2 |
| COc1ccnc2[nH]cc(C(=O)C(=O)N3CCN(C(=O)c4ccccc4)C[C@H]3C)c12 | LAI(GP120-M434I) Recombinant | RT activity | MT-2 | GP120-M434I | 4.25 |
| COc1ccccc1C(=S)Nc1ccc(Cl)c(C(=O)OC(C)C)c1 | - | syncytia | CEM | RT-E138K | 20.3 |
| CC(C)OC(=O)c1cc(NC(=S)N(C)C(C)C)ccc1Cl | - | syncytia | CEM | RT-Y181C | >1 |
| Cc1nnc(SCC(=O)Nc2ccc(S(N)(=O)=O)cc2Cl)n1-c1ccc(Cl)c2ccccc12 | NL4-3 | luciferase | HeLa + HeLa-JC53 | RT-Y188L | 68 |
| CCOC(=O)c1cc(NC(=S)OC(C)C)ccc1SC | - | syncytia | CEM | RT-Y181C | 83.5 |
| CC[C@H](C)OC(=S)Nc1ccc(Cl)c(C(=O)OC(C)C)c1 | - | syncytia | CEM | RT-V106A | 13.3 |
| CC(C)OC(=S)Nc1ccc(Cl)c(C(=O)SC(C)C)c1 | - | syncytia | CEM | RT-V106A | 95.4 |